Consider 1 substance from patent US20080194611A1, “Modulation of Cell Barrier Dysfunction” (priority 2005, published 2008).

Test [1] has as its system pyocyanin (PCN) production in P. aeruginosa. Nature of the test: Pyocyanin assay. The format is cell-based, Pseudomonas aeruginosa.
For the next test, the system named is MDCK cells. Description: TEER of MDCK cells apically exposed to PA27853 with opioid agonists. Format: cell-based. As to conditions: apical exposure to PA27853 plus agonist.
Test [2] deals with PA-I lectin/adhesin expression in P. aeruginosa 27853/PLL-EGFP. Description: PA-I lectin/adhesin expression, fluorescence of GFP-PA-I reporter strain.
A further test deals with P. aeruginosa. Description: Bacterial growth. Format: cell-based, Pseudomonas aeruginosa. Conditions: TSB media.
A further test concerns P. aeruginosa biofilm. Nature of the test: Biofilm formation assay. Format: cell-based, Pseudomonas aeruginosa.
The test system of test [3] is PA-I lectin/adhesin expression in P. aeruginosa PA27853 and PAO1. Conditions: strains PA27853 and PAO1.

As to “trans-3,4-dichloro-N-methyl-N[2-(1-pyrrolidinyl)cyclohexyl]benzeneacetamide methanesulfonate”, in test [1], the “PCN production in ΔPhnA and ΔPqsA” value is given as “slight increase in PCN production”; the “PCN production in ΔPhzA1” value was “produced no PCN even when exposed to U-50,488”; the “dynamic tracking of PCN production in ΔMvfR/mvfR” value was “demonstrated a shift in PCN production at lower cell densities”; the “dynamics of PCN production in ΔGacA/gacA” value is reported as “delayed PCN production”. In addition, in test [1] (PAO1), the “PCN production versus cell density” value is reported as “shift in the production of PCN at lower cell densities”. For the same substance, the PCN production result in test [1] (PAO1 and 27853, overnight exposure, OD520) was “induced a dose-dependent effect on PCN production”. Besides, the “PCN production in ΔMvfR/mvfR” value in test [1] (complemented mutant) is given as “further increased the already elevated PCN production”. Also, in test [1] (defective in the DNA-binding domain), the “PCN response of MvfR mutant 121-332” value is listed as “did not respond to U-50,488 or C4-HSL”. The “PCN production in ΔGacA and ΔMvfR” value in test [1] (gacA and mvfR mutants) is reported as “could not restore PCN production”. In addition, in test [1] (lasR, lasI, rhlI, rhlR mutants), the “PCN production in QS mutants” value is on record as “did not restore PCN production”. In test [1] (overnight, 1 mM U-50,488 or 100 μM C4-HSL), the “PCN production in ΔGacA/gacA” value is listed as “decreased, albeit minimally”. The “PCN response of MvfR mutants 1-292, 1-291, 1-283” value in test [1] (substrate binding domain affected) was “did not respond to U-50,488 and C4-HSL”. For the same substance, the “PCN response of MvfR mutants 1-299 and 1-293” value in test [1] (substrate binding domain intact) was “responded to U-50,488 and C4-HSL with enhanced PCN production”. Also, the “additional TEER decrease” value in the test on MDCK cells is recorded as 20%. The “PA-IL expression (fluorescence)” value in test [2] (27853/PLL-EGFP, 9 hours of growth in HDMEM media) was “Marked fluorescence was observed”. Moreover, the “PA-I expression judged by fluorescence of the GFP reporter strain” value in test [2] (PA27853/PLL-EGFP, opioid agonists) is “greatest effect on PA-I expression”. Also, the “effect on bacterial growth” value in the test with P. aeruginosa is reported as “Neither compound had an effect on bacterial growth”. Besides, the biofilm production entry in the test on P. aeruginosa biofilm (PA27853) is given as “about 150 % of PA27853 induction”. For the same substance, the biofilm formation result in the test on P. aeruginosa biofilm (PAO1) was “enhanced biofilm formation in PAO1 in a concentration-dependent manner”. Moreover, in test [3], the “response to express PA-I” value is on record as “induce a robust response”.
